Experimental data: PubChem BioAssay AID1259414 (Drosophila RNAi Screening Center, 2018)

Aim: 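Fly genes that alter Wolbachia amount inside host cells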 (primary screen)
Cell system: Drosophila JW18 cells infected with Wolbachia
Reagent: long dsRNA against Drosophila genes, 0.25 µg dsRNA per well of a 384-well plate
Timing: 5 days
Conditions: cells persistently infected with Wolbachia before knock-down; no added drug
Measurement: 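Automated imaging of bacterial rRNA staining divided by host cell count, reported as plate-normalised robust z-score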
Reading the numbers: Wolbachia per cell robust z: higher = more Wolbachia per host cell than the plate typical
Active means: 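Active if absolute robust z reaches 1.5 in two or more of three replicates, leaving out multi- or no-target dsRNAs, genes unexpressed in JW18 and A1 wells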
In all, the deposit lists about 24,000 reagents; below is an unselected part of those that have a named target and a result. In the full data, about 1,210 (5%) were called active. 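Inactive calls also include excluded dsRNAs with several or no targets, genes unexpressed in JW18, and well A1, regardless of score.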 Names joined by + are all predicted targets of the reagent.

target gene | DRSC id | Wolbachia per cell robust z, rep 1 | Wolbachia per cell robust z, rep 2 | Wolbachia per cell robust z, rep 3 | outcome
CG30114 | DRSC05707 | -0.483 | -0.339 | -3.79 | inactive
CG30114 | DRSC25433 | -1.19 | -1.11 | -0.0944 | inactive
CG31835 + CG42585 | DRSC01412 | 0.398 | -1.15 | -0.441 | inactive
Pi3K59F | DRSC04640 | 0.159 | 0.62 | -0.0761 | inactive
Pi3K59F | DRSC28890 | -0.608 | 0.04 | -0.0392 | inactive
CG7694 | DRSC16288 | -0.0583 | -0.13 | 0.0344 | inactive
fd102C | DRSC17203 | 1.47 | -0.732 | 0.873 | inactive
fd102C | DRSC26567 | 0.77 | 0.82 | 0.207 | inactive
CG32523 | DRSC20510 | -1.98 | -0.948 | -1.43 | inactive
CG6171 | DRSC15982 | 0.341 | -1.08 | -0.303 | inactive
Apl + Arts | DRSC10349 | 0.443 | -0.0747 | -0.178 | inactive
Iyd | DRSC10614 | 0.453 | 0.57 | 0.466 | inactive
Iyd | DRSC10615 | -0.204 | -0.881 | -0.207 | inactive
CG18467 | DRSC06758 | -0.108 | -1.35 | -2.78 | inactive
Teh1 | DRSC14544 | 0.387 | -0.551 | -6.48 | inactive
HSPC300 | DRSC22880 | -1.27 | -2.13 | -2.77 | active
CG14218 | DRSC19575 | 1.53 | -0.603 | 1.29 | inactive
CG14218 | DRSC25424 | 0.44 | 0.112 | 1.19 | inactive
CG2750 | DRSC19867 | 0.447 | -1.17 | -0.901 | inactive
CG33966 | DRSC08256 | 1.28 | 0.68 | 0.0869 | inactive
CG33966 | DRSC25718 | -0.752 | -0.644 | -0.399 | inactive
CG17129 | DRSC08508 | -0.514 | -0.79 | -0.45 | inactive
Indy | DRSC10393 | -2.2 | 0.837 | -0.849 | inactive
Indy | DRSC40849 | -0.685 | -1.01 | -2.62 | inactive
GC | DRSC08396 | 1.3 | 0.612 | -1.84 | inactive
GC | DRSC27222 | -5.87 | -1.71 | -1.51 | active
CG33985 | DRSC37800 | 1.52 | 1.49 | 3.68 | inactive
CG31538 | DRSC12059 | 0.498 | -0.0613 | 1.56 | inactive

Laid out differently: results already given.
| target gene | DRSC id | Wolbachia per cell robust z, rep 1 | Wolbachia per cell robust z, rep 2 | Wolbachia per cell robust z, rep 3 | outcome |
| --- | --- | --- | --- | --- | --- |
| CG6171 | DRSC15982 | 0.341 | -1.08 | -0.303 | inactive |
| Apl + Arts | DRSC10349 | 0.443 | -0.0747 | -0.178 | inactive |
| Iyd | DRSC10614 | 0.453 | 0.57 | 0.466 | inactive |
